What was measured:
[1] = system: Nc1nc2c(ncn2[C@@H]2O[C@H](COP(=O)(O)OP(=O)(O)O)[C@@H](O)[C@H]2O)c(=O)[nH]1; assay: purified protein; details: pH 7.5; 37.0 °C
[2] = system: Nc1ncnc2c1ncn2[C@@H]1O[C@H](COP(=O)(O)OP(=O)(O)OP(=O)(O)O)[C@@H](O)[C@H]1O; assay: purified protein; details: pH 7.5; 37.0 °C

(Mycobacterium tuberculosis H37Ra) showed a Km [1] of 11.3 ± 0.6 mM, a kcat/Km [1] of 57000 M⁻¹ s⁻¹ and a Km [2] of 1.35 ± 0.05 mM.

Reference: PMC3215733
